Potato spindle tuber viroid, loop 6: variant abundance in plants

From the data files of Wu et al. 2024, doi:10.1371/journal.ppat.1012142.

PSTVd intermediate strain, loop 6: wild type UGACCGCGAG, pool pattern UNNNCGNNNG; upper and lower strand joined, each 5' to 3', the first 5 letters being the upper strand, closing pairs included.

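A pool of all variants was put on leaves of three Nicotiana benthamiana plants. Progeny were sequenced from the inoculated region (day 5), the margin of the inoculated leaf (day 10) and systemic leaves (day 12).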

Values are reads per thousand in the sample; higher means more abundant, 0 means not found.
Each site shows the three plants.
"Pool" is the share in the plasmid pool used as inoculum, on the same scale.
The inoculated region was read from the minus strand, the other sites from the plus strand.
IR is the inoculated region, LM the leaf margin, Sys the systemic leaves.
With 36,220-57,551 reads a sample, very low values are single reads.

| sequence | pool | IR | LM | Sys |
|---|---|---|---|---|
| GGACCGAGCG | 0.0261 | 0.0174 / 0 / 0.0184 | 0 / 0 / 0 | 0 / 0 / 0 |
| UAACCGGAGG | 0.131 | 0.0869 / 0.0180 / 0.129 | 0.0276 / 0 / 0.0464 | 0 / 0 / 0 |
| UACACGCGGG | 0.170 | 0.122 / 0.0898 / 0.0553 | 0 / 0 / 0 | 0 / 0 / 0 |
| UACCCGGCGG | 0.248 | 0.191 / 0.0719 / 0.0369 | 0.0276 / 0 / 0.0232 | 0 / 0 / 0 |
| UAGUCGUUGG | 0.340 | 0.174 / 0.0898 / 0.0738 | 0 / 0 / 0.0232 | 0 / 0 / 0 |
| UAUACGCAAG | 0.118 | 0.765 / 0.593 / 0.645 | 0 / 0.0504 / 0.0464 | 0 / 0.101 / 0 |
| UAUCCGCUUG | 0.275 | 0.104 / 0.126 / 0.0184 | 0.0276 / 0 / 0 | 0 / 0 / 0 |
| UAUGCGACCG | 0.196 | 0.0348 / 0.0539 / 0.129 | 0 / 0 / 0 | 0 / 0 / 0 |
| UAUUCGGACG | 0.392 | 0.0869 / 0.0719 / 0.0369 | 0 / 0 / 0 | 0 / 0 / 0 |
| UAUUCGGUGG | 0.353 | 0.139 / 0.0180 / 0.166 | 0 / 0 / 0.0232 | 0 / 0 / 0.0205 |
| UCAACGCUGG | 0.131 | 0.0869 / 0.0359 / 0.0922 | 0.0276 / 0 / 0 | 0 / 0 / 0 |
| UCCCCGGCGG | 0.222 | 0.0869 / 0.0719 / 0.0369 | 0 / 0.0252 / 0 | 0 / 0 / 0 |
| UCCUCGAGCG | 0.235 | 0.104 / 0.0898 / 0.0738 | 0 / 0 / 0 | 0 / 0 / 0 |
| UCGCCGCUCG | 0.301 | 0.139 / 0.126 / 0.111 | 0.0552 / 0 / 0 | 0 / 0 / 0 |
| UCGCCGUUGG | 0.248 | 0.0174 / 0.108 / 0.129 | 0 / 0 / 0 | 0 / 0 / 0 |
| UCGCCGUUUG | 0.353 | 0.0869 / 0.0898 / 0.0922 | 0 / 0 / 0.0232 | 0 / 0 / 0 |
| UCUGCGAAUG | 0.327 | 0.139 / 0.0898 / 0.0553 | 0 / 0 / 0.0232 | 0 / 0 / 0 |
| UGAUCGACUG | 0.392 | 0.0869 / 0.144 / 0.0553 | 0 / 0 / 0 | 0 / 0 / 0 |
| UGCCCGACGG | 0.157 | 0.104 / 0.144 / 0.0738 | 0 / 0 / 0 | 0 / 0 / 0 |
| UGCCCGAUGG | 0.209 | 0.104 / 0.108 / 0.0184 | 0 / 0 / 0 | 0 / 0 / 0 |
| UGCGCGAGCG | 0.105 | 0.122 / 0.108 / 0.0369 | 0 / 0 / 0.0232 | 0 / 0 / 0 |
| UGGACGUCAG | 0.248 | 0.191 / 0.0719 / 0.0738 | 0 / 0 / 0 | 0 / 0 / 0 |
| UGGACGUUAG | 0.497 | 0.156 / 0 / 0.0922 | 0 / 0 / 0.0232 | 0 / 0 / 0 |
| UGGACGUUCG | 0.209 | 0.0521 / 0.0898 / 0.148 | 0.0276 / 0 / 0.0232 | 0.0180 / 0 / 0 |
| UGGGCGGUGG | 0.209 | 0.0348 / 0.144 / 0.0184 | 0 / 0 / 0 | 0 / 0 / 0 |
| UGUACGGUGG | 0.248 | 0.139 / 0.0539 / 0.0738 | 0 / 0 / 0 | 0 / 0 / 0 |
| UGUCCGAUCG | 0.183 | 0.0695 / 0.108 / 0.0369 | 0 / 0 / 0 | 0 / 0 / 0 |
| UGUCCGGGUG | 0.170 | 0.104 / 0.162 / 0.111 | 0 / 0 / 0 | 0 / 0 / 0 |
| UGUGCGCGUG | 0.144 | 0.209 / 0.126 / 0.0553 | 0 / 0 / 0 | 0 / 0 / 0.0205 |
| UUACCGCGUG | 0.0654 | 0.104 / 0.198 / 0.203 | 0 / 0 / 0.0232 | 0 / 0.0404 / 0.0410 |
| UUAGCGUGUG | 0.261 | 0.122 / 0.126 / 0.166 | 0 / 0 / 0 | 0 / 0 / 0 |
| UUAUCGCAAG | 0.105 | 0.174 / 0.144 / 0.277 | 0 / 0 / 0.0232 | 0 / 0 / 0 |
| UUCACGACAG | 0.196 | 0.0521 / 0.0359 / 0.0922 | 0 / 0 / 0 | 0 / 0 / 0 |
| UUCCCGGGCG | 0.170 | 0.156 / 0.108 / 0.0184 | 0.0276 / 0 / 0.0232 | 0 / 0 / 0 |
| UUCUCGCCCG | 0.392 | 0.0869 / 0.0180 / 0.111 | 0 / 0 / 0.0232 | 0 / 0 / 0.0205 |
| UUCUCGUAGG | 0.314 | 0.139 / 0.0719 / 0.111 | 0 / 0 / 0 | 0 / 0 / 0 |
| UUGACGGACG | 0.157 | 0.678 / 0.593 / 0.443 | 0 / 0.151 / 0.0464 | 0 / 0 / 0 |
| UUGACGUCUG | 0.379 | 0.0869 / 0.0359 / 0.0922 | 0 / 0 / 0.0232 | 0 / 0 / 0 |
| UUGCCGACUG | 0.248 | 0.0695 / 0.108 / 0.0738 | 0.0276 / 0 / 0 | 0 / 0 / 0 |
| UUGCCGGUGA | 0.0131 | 0 / 0 / 0 | 0 / 0 / 0 | 0 / 0 / 0 |
| UUGUCGGAGG | 0.170 | 0.0521 / 0.0539 / 0.0184 | 0 / 0 / 0 | 0 / 0 / 0 |
| UUUCCGGCGG | 0.209 | 0.0869 / 0.144 / 0.0553 | 0 / 0 / 0.0232 | 0 / 0 / 0 |
| UUUGCGUAGG | 0.170 | 0.139 / 0.0359 / 0.0738 | 0 / 0 / 0 | 0 / 0 / 0 |

The authors trace changes outside the varied positions to PCR and sequencing errors or to mutation in the plant; presence does not show that a variant is infectious alone.
Wild type was 20.7 per thousand in the pool and the most common sequence in every sample (inoculated region 195, 198, 203; leaf margin 629, 591, 734; systemic leaves 942, 870, 868).